The values below come from ChEMBL document CHEMBL1145067, “3'-C-branched-chain-substituted nucleosides and nucleotides as potent inhibitors of Mycobacterium tuberculosis thymidine monophosphate kinase” (J Med Chem, 2003).

The target of this test is T1, Thymidylate kinase (Mycobacterium tuberculosis, UniProt P9WKE1).
T1 sequence (P9WKE1 whole entry): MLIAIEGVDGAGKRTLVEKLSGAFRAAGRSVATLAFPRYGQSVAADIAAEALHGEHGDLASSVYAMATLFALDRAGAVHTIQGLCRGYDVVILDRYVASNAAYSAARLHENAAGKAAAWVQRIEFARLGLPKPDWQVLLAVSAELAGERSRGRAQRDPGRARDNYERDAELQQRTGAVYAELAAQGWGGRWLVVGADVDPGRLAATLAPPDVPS
Briefly: In Vitro inhibition of Thymidine […] Kinase of Mycobacterium tuberculosis (TMPKm). In short, it runs like this:
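Recombinant TMPKmt or human TMPKh overexpressed in E. coli. Activity was read by a coupled spectrophotometric assay (NADH, 334 nm). ATP was fixed at 0.5 mM and dTMP at 0.05 mM; analogues were varied over 0.01–4 mM.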

Molecule `Cc1cn([C@H]2C[C@H](O)[C@@H](CO)O2)c(=O)[nH]c1=O` [DOXRIBTIMINE] showed a Ki of 27 µM.
